# Reference: patent US20110189692A1
# Molecular target: soluble / monomeric Aβ42 (endogenous in normal human plasma or CSF, or synthetic monomers 1-42) (human) (UniProt P05067)
# Experiment: PSR1 beads with 25 ng/ml monomeric Aβ42 in increasing concentrations of plasma
substance,measurement,value
PSR1 (peptoid reagent XIIb attached to magnetic beads) (designed binder),inhibition of binding by 20% plasma,> 90%
